# The supplement of paper PMC10515830
# This is a selection; strong and weak results do not stand in their true shares.
# Experiments:
# Details in all cases: 10 µM; exposure time 6 h
# [1] = test system: Danio rerio larvae (5 dpf); assay: difference in excitability vs DMSO (percentage points); higher = more excitable than DMSO
# Procedure, shortened: (§1)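 Wild-type 5 dpf zebrafish larvae in 96-well plates were given 100 µL egg water containing library compound at 10 µM final for 6 h. After 3 h of exposure, plates at 28.5 ℃ were photographed every 6 s during a 3-h programme of moving lines and 100 ms, 400Hz tones. Z-LaP Tracker (a DeepLabCut model) quantified each behaviour, averaged over 48 larvae per compound. Values are the compound mean minus the DMSO-vehicle control, in percentage points.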
# [2] = test system: Danio rerio larvae (5 dpf); assay: difference in startle response vs DMSO (percentage points); higher = stronger startle than DMSO
# Procedure, shortened: as §1
# [3] = test system: Danio rerio larvae (5 dpf); assay: difference in activity during first hour vs DMSO (percentage points); higher = more activity than DMSO
# Procedure, shortened: as §1
# [4] = test system: Danio rerio larvae (5 dpf); assay: difference in habituation to acoustic stimuli vs DMSO (percentage points); higher = more habituation than DMSO
# Procedure, shortened: as §1
# [5] = test system: Danio rerio larvae (5 dpf); assay: difference in combined optomotor response to red, green and blue moving lines vs DMSO (percentage points); higher = stronger optomotor response than DMSO
# Procedure, shortened: as §1
compound,measurement,setting,value
CCOP(=O)(OCC)SCC[N+](C)(C)C [Echothiophate (iodide)],difference in excitability,[1],4.06
same,difference in startle response,[2],-2.32
same,difference in activity during first hour,[3],3.24
same,difference in habituation to acoustic stimuli,[4],0.454
same,difference,[5],0.422
